Data on one substance can be found in article PMC12148371 (iScience, 2025).

In this assay the target is EBOV-GP-RBD without the glycan cap and MLD, displayed on the cell surface (EGPdcm, wild type) (Zaire ebolavirus).

In turn, “human soluble CD4-183 (sCD4-183) two-domain protein (domain or fragment)” gave a percent NPC1 binding left with 20 μM sCD4 of 20.1%.
